# Experiments:
# [1] = molecular target: Human immunodeficiency virus type 1 reverse transcriptase (Human immunodeficiency virus 1, UniProt Q72547); test: Inhibition of HIV1 recombinant wild type reverse transcriptase by SPA heteropolymeric assay
# [2] = molecular target: Human immunodeficiency virus type 1 reverse transcriptase (Human immunodeficiency virus 1, UniProt Q72547, K103N/Y181C); test: Inhibition of HIV1 recombinant reverse transcriptase K103N/Y181C double mutant by SPA heteropolymeric assay
# [3] = molecular target: Human immunodeficiency virus type 1 reverse transcriptase (Human immunodeficiency virus 1, UniProt Q72547, Y188L); test: Inhibition of HIV1 recombinant reverse transcriptase Y188L mutant by SPA heteropolymeric assay
compound,measurement,setting,value
Cc1cc(C#N)cc(C)c1Oc1nc(Nc2ccc(C#N)cc2)nc(N)c1Br [ETRAVIRINE],IC50,[1],0.026 µM
same,IC50,[2],0.019 µM
same,IC50,[3],0.108 µM
